{
  "source": "ChEMBL document CHEMBL1157539",
  "about": "“Thousands of chemical starting points for antimalarial lead identification” (Nature, 2010)",
  "system": "Plasmodium falciparum",
  "test": "GSK_TCMDC: Inhibition of Plasmodium falciparum 3D7 in whole erythrocytes, using parasite LDH activity as an index of growth.",
  "type": "functional, organism-based",
  "note": "Some compounds may have been tested in ways that are not shown here.",
  "data": [
    {"smiles": "CC(C)(C)c1cc2cc(N(C(=O)c3ccc(C(F)(F)F)cc3)C3CCN(Cc4ccccc4)CC3)ccc2[nH]1", "values": [
      {"measurement": "XC50", "result": 1190, "unit": "nM"}
    ]},
    {"smiles": "Cn1c(=O)n(C2CCN(CCCC(c3ccc(F)cc3)c3ccc(F)cc3)CC2)c2ccccc21", "values": [
      {"measurement": "XC50", "result": 836, "unit": "nM"}
    ]}
  ]
}
